Taken from: PubChem BioAssay AID504761 (Drosophila RNAi Screening Center, 2011)

Assay: 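Genome-wide fly cell screen for genes dengue virus requires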 (primary screen)
Cells: D.Mel-2 cells from Drosophila
Reagent: long dsRNA against Drosophila genes
Challenge: infection with dengue virus type 2; dose and infection time not stated
Measured: 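Cells stained for dengue envelope protein and imaged; percent of infected cells per well on duplicate plates, ranked by infection, with stained nuclei counted for cell number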
Reading the numbers: infection score: higher = more virus-infected cells; cell count: higher = more cells in the well
Hit rule: 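Very low infection ranking in both replicate wells (chance probability at most 0.065), then a retest showing infection dropped 1.5-fold or more at p below 0.05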
Calls: active = confirmed: knock-down lowers infection; inactive = not picked or not confirmed
In all, the deposit lists about 22,000 reagents; this is an unselected part of those with a known target gene and a result. In the full data, 116 (0.52%) were called active. 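Calls depend on retest data that are not deposited; infection was ranked per plate without normalising between plates; the unit of the infection score is not given.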 The raw values are shown without normalisation. The numbers tell different reagents against one gene apart. Further read-outs or replicates are left out here. Not given: the amount of reagent, the time to read-out.

CG30037 showed infection score, replicate 1 = 9.02; cell count, replicate 1 = 6865; inactive. Silencing of RhoGEF3 (retired record) #1 gave: infection score, replicate 1 = 0.87; cell count, replicate 1 = 6184; inactive. Knock-down of RhoGEF3 (retired record) #2 gave: infection score, replicate 1 = 4.82; cell count, replicate 1 = 6240; inactive. Clbn (Caliban) showed infection score, replicate 1 = 1.93; cell count, replicate 1 = 6517; inactive. E2f1 (E2F transcription factor 1) #1 showed infection score, replicate 1 = 2.16; cell count, replicate 1 = 3988; inactive. After knock-down of E2f1 (E2F transcription factor 1) #2, the screen gave infection score, replicate 1 = 7.1; cell count, replicate 1 = 902; inactive.

With knock-down of CG8243 #1, the screen gave infection score, replicate 1 = 12.8; cell count, replicate 1 = 2639; inactive. Silencing of CG8243 #2 resulted in: infection score, replicate 1 = 16; cell count, replicate 1 = 6858; inactive. Against CG15919, the values are infection score, replicate 1 = 8.73; cell count, replicate 1 = 6277; inactive. Depletion of Nop17l (Nop17 like) #1 came out at: infection score, replicate 1 = 4.3; cell count, replicate 1 = 5738; inactive. After knock-down of Nop17l (Nop17 like) #2, the screen gave cell count, replicate 1 = 242; inactive. Depletion of Usp2 (Ubiquitin specific protease 2) #1 gave: infection score, replicate 1 = 2.91; cell count, replicate 1 = 6399; inactive.

Usp2 (Ubiquitin specific protease 2) #2 showed infection score, replicate 1 = 1.11; cell count, replicate 1 = 6557; inactive. For Usp2 (Ubiquitin specific protease 2) #3, the values are infection score, replicate 1 = 8.6; cell count, replicate 1 = 6154; inactive. Silencing of Usp2 (Ubiquitin specific protease 2) #4 came out at: infection score, replicate 1 = 9.93; cell count, replicate 1 = 6670; inactive.

Reformatted: entries from further up.
gene | reagent no. | infection score, replicate 1 | cell count, replicate 1 | call
Usp2 (Ubiquitin specific protease 2) | 3 | 8.6 | 6154 | inactive
Usp2 (Ubiquitin specific protease 2) | 4 | 9.93 | 6670 | inactive
